## HIV-1 5' UTR: effect of mutations on RNA dimer formation

RNA: 5' end of the HIV-1 NL4-3 genome, made in vitro. Positions 1-437 read:
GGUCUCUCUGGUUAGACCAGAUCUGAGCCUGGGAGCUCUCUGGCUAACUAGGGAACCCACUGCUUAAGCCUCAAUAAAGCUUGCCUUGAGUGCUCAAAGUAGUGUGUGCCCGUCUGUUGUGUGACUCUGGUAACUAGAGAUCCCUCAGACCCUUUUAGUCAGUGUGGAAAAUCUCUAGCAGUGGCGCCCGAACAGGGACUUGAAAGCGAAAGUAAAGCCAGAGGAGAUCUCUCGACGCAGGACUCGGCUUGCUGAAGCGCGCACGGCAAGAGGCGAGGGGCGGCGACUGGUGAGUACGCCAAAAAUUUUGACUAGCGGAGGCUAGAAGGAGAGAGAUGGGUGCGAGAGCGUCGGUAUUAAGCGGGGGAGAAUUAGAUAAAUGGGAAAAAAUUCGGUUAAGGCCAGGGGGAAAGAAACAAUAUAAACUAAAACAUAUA

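Mutant RNA libraries with 1G, 2G or 3G starts, with or without cap, were folded at 37 °C for 30 min. High salt was 300 mM KCl and 5 mM MgCl2, low salt 40 mM KCl and 0.1 mM MgCl2; monomer and dimer were parted on a native gel. Kdimer compares mutation frequencies in monomer and dimer, corrected for sequencing errors.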

Scale: median log2 Kdimer over the changes at a position; positive = changes inhibit dimerization, negative = changes enhance it. One numbering serves 1G, 2G and 3G. A position is written with its base where known. The source gives no letters past position 437.

| position | domain | 1G capped high-salt | 1G capped low-salt | 1G uncapped high-salt | 1G uncapped low-salt |
|---|---|---|---|---|---|
| 482 | none | -0.06 | -0.07 | 0.11 | 0.05 |
| 483 | none | -0.05 | -0.02 | -0.04 | 0.12 |
| 484 | none | -0.07 | -0.07 | 0.08 | 0.08 |
| 485 | none | -0.05 | 0.02 | 0.08 | -0.05 |
| 486 | none | -0.01 | -0.05 | -0.02 | 0.04 |
| 487 | none | -0.09 | -0.03 | 0.04 | -0.14 |
| 488 | none | -0.02 | 0.10 | 0.10 | 0.09 |
| 489 | none | 0.10 | 0.04 | 0.18 | 0.01 |
| 490 | none | 0.03 | 0.02 | 0.07 | -0.02 |
| 491 | none | 0.12 | -0.08 | -0.02 | -0.05 |
| 492 | none | 0.04 | 0.09 | 0.05 | 0.01 |
| 493 | none | 0.11 | -0.01 | 0.08 | 0.11 |
| 494 | none | -0.01 | -0.02 | 0.04 | 0.00 |
| 495 | none | -0.04 | -0.02 | -0.07 | 0.00 |
| 496 | none | 0.07 | 0.06 | 0.03 | -0.03 |
| 497 | none | 0.04 | 0.07 | 0.03 | 0.03 |
| 498 | none | 0.17 | -0.02 | 0.11 | -0.07 |
| 499 | none | 0.19 | 0.05 | 0.14 | -0.02 |
| 500 | none | -0.12 | -0.09 | -0.03 | 0.01 |
| 501 | none | 0.25 | -0.16 | -0.04 | -0.17 |
| 502 | none | 0.02 | 0.01 | -0.02 | -0.13 |
| 503 | none | -0.02 | -0.06 | -0.02 | -0.03 |
| 504 | none | -0.02 | -0.01 | 0.02 | 0.07 |
| 505 | none | -0.05 | 0.11 | 0.05 | 0.14 |
| 506 | none | 0.06 | 0.00 | 0.05 | -0.14 |
| 507 | none | -0.05 | -0.05 | 0.08 | 0.03 |
| 508 | none | 0.26 | -0.07 | 0.11 | -0.23 |
| 509 | none | -0.07 | -0.07 | 0.15 | 0.01 |
| 510 | none | 0.15 | -0.02 | 0.06 | 0.05 |
| 511 | none | 0.09 | 0.09 | 0.07 | 0.04 |
| 512 | none | 0.13 | -0.03 | 0.10 | -0.01 |
| 513 | none | 0.06 | 0.09 | 0.03 | 0.07 |
| 514 | none | -0.01 | -0.08 | -0.01 | 0.04 |
| 515 | none | 0.00 | -0.02 | 0.06 | 0.09 |

The opening 2 entries, copied out:

position	domain	1G capped high-salt	1G capped low-salt	1G uncapped high-salt	1G uncapped low-salt
482	none	-0.06	-0.07	0.11	0.05
483	none	-0.05	-0.02	-0.04	0.12

From the data files of Ye et al. 2022, doi:10.1038/s41594-022-00746-2.